Broadly, the IC50 is the point on the concentration scale where inhibition reaches its midpoint.

Amino acid sequences for entries named in this document (tags omitted).
UniProt P51681, whole entry: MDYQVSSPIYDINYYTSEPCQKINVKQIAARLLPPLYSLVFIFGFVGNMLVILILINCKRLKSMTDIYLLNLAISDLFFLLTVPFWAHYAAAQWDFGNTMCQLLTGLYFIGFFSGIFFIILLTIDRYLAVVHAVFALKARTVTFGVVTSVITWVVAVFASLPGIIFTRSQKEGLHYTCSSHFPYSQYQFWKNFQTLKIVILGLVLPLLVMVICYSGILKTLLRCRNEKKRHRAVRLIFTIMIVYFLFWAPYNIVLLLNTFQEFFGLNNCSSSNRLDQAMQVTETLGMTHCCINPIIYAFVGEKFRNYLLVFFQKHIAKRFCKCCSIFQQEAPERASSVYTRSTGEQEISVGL

This experiment addresses Human CCR5 receptor (Homo sapiens, UniProt P51681). As to the kind of experiment: Human CCR5 receptor-ligand binding assay (125I RANTES displacement). Particulars: read-out: Binding IC50 (μM) RANTES; 0.1 nM 125I RANTES, CHO-Gα16-hCCR5 cells, RT 2 h; tested form: trifluoroacetate. The source says:
Human CCR5 receptor (Genebank ID: 29169292) was cloned into mammalian expression vector, pTarget (Promega). The construct was transfected into CHO-Gα16 cells by using Fugene Reagent (Roche). Clones were selected under antibiotic pressure (G418 and Hygromycin) and sorted 4 times with a fluorescence activates cell sorter and a monoclonal antibody specific for CCR5 receptor (BD Biosciences Pharmigen, Mab 2D7, Cat. No. 555993). The clone with highest expression (100,000 copies per cell) was chosen for the binding assays.
Adherent cells in […] tissue culture flask (˜90% confluent) were harvested using 1 mM EDTA in PBS (phosphate-buffered saline) without Ca^2+ and Mg^2+. Cells were washed twice with PBS containing no Ca^2+ and Mg^2+. CHO-Gα16-hCCR5 cells were then resuspended (1×10^6/ml) in ice cold binding buffer (50 mM HEPES, 1 mM CaCl2, 5 mM MgCl2, 0.5% BSA, 0.05% NaN3, pH 7.24), pH 7.4), supplemented with freshly made 0.5% BSA and 0.05% NaN3.
Eighty μl CHO-Gα16-hCCR5 (1×10^6/ml) cells were added to 96 well plates. All dilutions were made in binding buffer (50 mM HEPES, 1 mM CaCl2, 5 mM MgCl2, 0.5% BSA, 0.05% NaN3, pH 7.24).
The plates were incubated on a cell shaker at RT for 2 h with a final concentration of 0.1 nM ^125I RANTES or ^125I MIP-1α or ^125I MIP-1β. The compound dilutions were made in PBS, 1% BSA. Total reaction volume was 100 μl per well. The test compounds were added to the cells prior to the addition of radioligand.
After incubation, the cells were harvested onto GF/C filter plates using Packard cell harvester. Filters were pretreated with 0.3% PEI/0.2% BSA for 30 min. The filter plate was washed rapidly 5 times with 25 mM HEPES, 500 mM NaCl, 1 mM CaCl2 and 5 mM MgCl2 adjusted to pH 7.1. Plates were dried in oven (70° C.) for 20 min, added with 40 μl scintillation fluid and sealed with Packard TopSeal-A. Packard Top Count was used to measure of the radioactivity for 1 min per well.
Total binding was determined with control wells added with radioisotope and buffer and the non-specific binding was determined using an excess cold RANTES to some of the control wells. Specific binding was determined by subtracting the non-specific form total binding. Results are expressed as the percentage of specific ^125I RANTES binding. IC50 values were determined using varying concentrations of the test ligand in triplicates and the data was analyzed using GraphPad Prism (GraphPad, San Diego, Calif.).
With `Cc1ccc(N(CCCN2CC3CN(C(=O)c4c(C)cc(=O)oc4C)CC3C2)C(=O)C2CCC(F)(F)CC2)cc1Cl` (centres unmarked), the 50% inhibitory concentration (IC50) was 0.0029 µM.

In the case of `Cc1ccc(N(CCCN2CC3CN(C(=O)c4c(Cl)cc(S(C)(=O)=O)cc4Cl)CC3C2)C(=O)C2CCC(F)(F)CC2)cc1Cl` (centres unmarked), the half-inhibitory concentration (IC50) is 0.0028 µM. Then `Cc1ccc(N(CCCN2CC3CN(C(=O)c4c(C)ccnc4C)CC3C2)C(=O)Nc2cccc(Cl)c2)cc1Cl` (centres unmarked), with 0.0022 µM; and `Cc1cccc(C)c1C(=O)N1CC2CN(CC[C@H](NC(=O)CC3CCCC3)c3ccccc3)CC2C1` (some centres unmarked), with 0.0037 µM; and `Cc1cccc(C)c1C(=O)N1CC2CN(CC[C@H](NC(=O)C3CCCCC3)c3ccccc3)CC2C1` (some centres unmarked), with 0.0032 µM. Then `O=C(N[C@@H](CCN1CC2CN(C(=O)c3cccnc3)CC2C1)c1ccccc1)C1CCCC1` (some centres unmarked), with 0.0191 µM; and `Cc1cc(Cl)c(C(=O)N2CC3CN(CC[C@H](NC(=O)C4CCCC4)c4ccccc4)CC3C2)c(Cl)c1` (some centres unmarked), with 0.0019 µM; and `Cc1ccc(C(=O)N[C@@H](CCN2CC3CN(C(=O)c4c(C)cccc4C)CC3C2)c2ccccc2)s1` (some centres unmarked), with 0.0028 µM.

These data come from patent publication US7714018B2, “Heterocyclic antiviral compounds” (Roche Palo Alto LLC, priority 2004, dated 2010).
